System: Plasmodium falciparum
Test: In vitro antimalarial activity against chloroquine-sensitive Plasmodium falciparum NF54

CO[C@H]1O[C@]2(C)CC[C@H]3CCC[C@@H](CCOP(=O)(Oc4ccccc4)Oc4ccccc4)C31OO2
IC50: 14 nM

Source: ChEMBL document CHEMBL1131600 (J Med Chem, 1998)
